Assay results reported in paper PMC12124432 (Angewandte Chemie (International Ed. in English), 2025).
Some peptides are written in HELM: one residue between dots, names in brackets for other building blocks, links after the first $.

assay: general procedure: Fmoc solid-phase peptide synthesis; 2-chlorotrityl chloride (2-CTC) resin, 100-200 mesh, 1% DVB, 1.06 mmol/g (Aapptec), loaded with Fmoc-L-Lys-OAll via side; DIC/OxymaPure; details: whole synthesis

Row | Substance | isolated yield [%]
1 | PEPTIDE1{[FA3].[C3].G.[A2].[Dab].K.K.[P1].N.K}$PEPTIDE1,PEPTIDE1,5:R3-10:R2$$$V2.0 | 15
2 | PEPTIDE1{[FA7].K.K.Q.K.[Dab].N.Y.K}$PEPTIDE1,PEPTIDE1,6:R3-9:R2$$$V2.0 | 7
3 | PEPTIDE1{[FA2].K.[A5].K.[Dab].[C2].N.R.[H12].K}$PEPTIDE1,PEPTIDE1,5:R3-10:R2$$$V2.0 | 16
4 | PEPTIDE1{[FA12].[A8].K.N.[Dab].N.[H2].K.[C2].K}$PEPTIDE1,PEPTIDE1,5:R3-10:R2$$$V2.0 | 6
5 | PEPTIDE1{[FA3].[A3].K.N.[Dab].[C3].N.A.[H10].K}$PEPTIDE1,PEPTIDE1,5:R3-10:R2$$$V2.0 | 17
6 | FA4-Val-C2-A1-Dab(*)-Lys-Gly-Lys-C3-Lys-* | 19
7 | PEPTIDE1{[FA0].[Dab].T.[Dab].[Dab].[Dab].[dF].L.[Dab].[Dab].T}$PEPTIDE1,PEPTIDE1,5:R3-11:R2$$$V2.0 | 9
8 | PEPTIDE1{[FA11].[A2].[H12].N.[Dab].S.K.[C1].N.K}$PEPTIDE1,PEPTIDE1,5:R3-10:R2$$$V2.0 | 24
9 | FA2-A3-C2-Asn-Arg-Dab(*)-Lys-C1-Lys-Lys-* | 10
10 | PEPTIDE1{[FA6].[C2].A.Y.R.[Dab].S.[C2].[C2].K}$PEPTIDE1,PEPTIDE1,6:R3-10:R2$$$V2.0 | 20
11 | PEPTIDE1{[FA8].[A2].K.K.N.[Dab].[C3].P.[P1].K}$PEPTIDE1,PEPTIDE1,6:R3-10:R2$$$V2.0 | 23
12 | FA10-A2-C1-C2-Dab(*)-Lys-Asn-Lys-Gly-Lys-* | 5
13 | PEPTIDE1{[FA10].K.Y.K.[Dab].Q.N.K.K}$PEPTIDE1,PEPTIDE1,5:R3-9:R2$$$V2.0 | 10
14 | FA7-H4-C3-A6-Dab(*)-C2-Lys-Ser-Lys-C1-Lys-* | 6
15 | PEPTIDE1{[FA5].Y.Q.K.[Dab].Q.Q.K.K}$PEPTIDE1,PEPTIDE1,5:R3-9:R2$$$V2.0 | 13
16 | PEPTIDE1{[FA2].[A2].K.N.[Dab].[C2].S.S.[H7].[C1].K}$PEPTIDE1,PEPTIDE1,5:R3-11:R2$$$V2.0 | 9
17 | PEPTIDE1{[FA2].[A3].[C1].N.K.[Dab].N.K.[C2].K}$PEPTIDE1,PEPTIDE1,6:R3-10:R2$$$V2.0 | 22
18 | PEPTIDE1{[FA2].[A2].K.S.[Dab].[C2].[H10].K.[H6].[C2].K}$PEPTIDE1,PEPTIDE1,5:R3-11:R2$$$V2.0 | 4
19 | FA5-Lys-A2-Lys-Dab(*)-Asn-Lys-C2-H7-Lys-* | 11
20 | PEPTIDE1{[FA3].[A8].V.K.N.[Dab].[C2].[P1].K.K}$PEPTIDE1,PEPTIDE1,6:R3-10:R2$$$V2.0 | 8
21 | FA11-A2-Lys-Asn-Dab(*)-C2-Arg-C9-Lys-* | 22

Row | Substance | isolated yield [%]
22 | FA4-A2-C3-C2-Dab(*)-Arg-Gln-C2-H9-Lys-* | 3
23 | FA12-A3-Lys-C2-Dab(*)-Asn-C2-Lys-Val-Lys-* | 28
24 | PEPTIDE1{[FA1].[A3].S.[C2].[Dab].S.K.[H6].K.K.K}$PEPTIDE1,PEPTIDE1,5:R3-11:R2$$$V2.0 | 6
25 | PEPTIDE1{[FA2].[A2].[C1].N.K.[Dab].S.K.[C1].K}$PEPTIDE1,PEPTIDE1,6:R3-10:R2$$$V2.0 | 31
26 | FA10-A3-Lys-C2-Dab(*)-Asn-C2-Lys-Val-Lys-* | 22
27 | FA5-A3-Lys-Asn-Dab(*)-Lys-H2-Lys-C3-Lys-* | 22
28 | PEPTIDE1{[FA11].[A3].P.K.[Dab].N.G.[H12].K.S.K}$PEPTIDE1,PEPTIDE1,5:R3-11:R2$$$V2.0 | 20
29 | FA5-C2-Tyr-Lys-Dab(*)-Lys-Arg-C2-Lys-* | 10
30 | FA11-A7-Lys-Asn-Dab(*)-H2-Lys-C3-C2-Lys-* | 10
31 | PEPTIDE1{[FA8].[A8].K.N.[Dab].N.[H2].K.[C2].K}$PEPTIDE1,PEPTIDE1,5:R3-10:R2$$$V2.0 | 29
32 | FA2-A2-Lys-H3-Dab(*)-Lys-Asn-Lys-C2-C2-Lys-* | 22
33 | FA5-A6-C2-Gln-Dab(*)-Lys-C1-Lys-Lys-* | 11
34 | PEPTIDE1{[FA3].[A6].K.N.[Dab].[C2].[C2].[C1].K.K}$PEPTIDE1,PEPTIDE1,5:R3-10:R2$$$V2.0 | 52
35 | PEPTIDE1{[FA4].K.Y.K.[Dab].K.Q.K.K}$PEPTIDE1,PEPTIDE1,5:R3-9:R2$$$V2.0 | 7
36 | PEPTIDE1{[FA5].[A7].[C3].Q.[Dab].[C1].Q.K.K}$PEPTIDE1,PEPTIDE1,5:R3-9:R2$$$V2.0 | 15
37 | FA5-C3-Val-A6-Dab(*)-C1-Lys-Lys-P3-Lys-* | 16
38 | FA11-A2-Lys-Asn-Dab(*)-Lys-C3-Lys-C8-Lys-* | 4
39 | FA7-A3-Gly-Arg-Dab(*)-H2-Asn-Lys-C3-Lys-* | 7
40 | PEPTIDE1{[FA4].[A8].K.N.[Dab].N.[C2].K.P.K}$PEPTIDE1,PEPTIDE1,5:R3-10:R2$$$V2.0 | 24
41 | FA2-A2-Arg-Asn-Dab(*)-Ser-C2-Lys-Arg-Lys-* | 39
